Measurements as given in patent US6623741B1, “Methods and compositions for inhibition of membrane fusion-associated events including RSV transmission” (Trimeris, Inc., priority 2000, dated 2003).

System: HIV-1LAI
Conditions: FIG. 1 legend
Method: Cell Free Virus Infection Assay:
Synthetic peptides were incubated at 37° C. with either 247 TCID50 (for experiment depicted in FIG. 2), or 62 TCID50 (for experiment depicted in FIG. 3) units of HIV-1LAI virus or 25 TCID50 units of HIV-2^NIHZ and CEM CD4^+ cells at peptide concentrations of 0, 0.04, 0.4, 4.0, and 40 μg/ml for 7 days. The resulting reverse transcriptase (RT) activity in counts per minute was determined using the assay described, below, in Section 6.1.5. See, Reed, L. J. et al., 1938, Am. J. Hyg. 27: 493-497 for an explanation of TCID50 calculations.
Reverse Transcriptase Assay:
The micro-reverse transcriptase (RT) assay was adapted from Goff et al. (Goff, S. et al., 1981, J. Virol. 38:239-248) and Willey et al. (Willey, R. et al., 1988, J. Virol. 62:139-147). Supernatants from virus/cell cultures are adjusted to 1% Triton-X100. A 10 μl sample of supernatant was added to 50 μl of RT cocktail in a 96-well U-bottom microtitre plate and the samples incubated at 37° C. for 90 min. The RT cocktail contained 75 mM KCl, 2 mM dithiothreitol, 5 mM MgCl2, 5 μg/ml poly A (Pharmacia, cat. No. 27-4110-01), 0.25 units/ml oligo dT (Pharmacia, cat. No. 27-7858-01), 0.05% NP40, 50 mM Tris-HCl, pH 7.8, 0.5 μM non-radioactive dTTP, and 10 μCi/ml ^32P-dTTP (Amersham, cat. No. PB. 10167). […]

| Compound | inhibition of HIV-1 cell free virus infection (in words) |
| --- | --- |
| CC[C@H](C)[C@H](NC(=O)[C@H](C)NC(=O)[C@@H](NC(=O)[C@@H](NC(=O)[C@H](CCCNC(=N)N)NC(=O)[C@H](C)NC(=O)[C@H](CCC(N)=O)NC(=O)[C@H](CC(C)C)NC(=O)[C@H](CC(N)=O)NC(=O)[C@H](CCCCN)NC(=O)[C@@H](NC(=O)CNC(=O)[C@H](Cc1c[nH]c2ccccc12)NC(=O)[C@@H](NC(=O)[C@@H](NC(=O)[C@H](CC(C)C)NC(=O)[C@H](CCCNC(=N)N)NC(=O)[C@H](CC(C)C)NC(=O)[C@H](CCSC)NC(=O)[C@H](CCC(=O)O)NC(=O)[C@H](CCC(N)=O)NC(=O)[C@H](CCC(N)=O)NC(=O)[C@H](CCCNC(=N)N)NC(=O)[C@H](CCCCN)NC(=O)[C@@H](NC(=O)[C@@H](NC(=O)[C@H](CC(=O)O)NC(=O)[C@H](CC(C)C)NC(=O)[C@H](CC(C)C)NC(=O)[C@H](CCC(N)=O)NC(=O)[C@H](CCC(N)=O)NC(C)=O)C(C)C)C(C)C)[C@@H](C)O)C(C)C)[C@@H](C)O)C(C)C)[C@@H](C)O)C(=O)N[C@@H](CCC(=O)O)C(=O)N[C@@H](CCCCN)C(=O)N[C@@H](Cc1ccc(O)cc1)C(=O)N[C@@H](CC(C)C)C(=O)N[C@@H](CCCCN)C(=O)N[C@@H](CC(=O)O)C(=O)N[C@@H](CCC(N)=O)C(N)=O [DP-118] | inhibits HIV-1 cell free virus infection |
| CC[C@H](C)[C@H](NC(=O)CNC(=O)[C@H](Cc1c[nH]c2ccccc12)NC(=O)[C@@H](NC(=O)[C@@H](NC(=O)[C@H](CC(C)C)NC(=O)[C@H](CCC(N)=O)NC(=O)[C@H](CC(C)C)NC(=O)[C@H](CC(C)C)NC(=O)[C@H](Cc1c[nH]cn1)NC(=O)[C@H](CCC(N)=O)NC(=O)[C@H](CCC(N)=O)NC(=O)[C@H](C)NC(=O)[C@H](CCC(=O)O)NC(=O)[C@@H](NC(=O)[C@H](C)NC(=O)[C@H](CCCNC(=N)N)NC(=O)[C@H](CC(C)C)NC(=O)[C@H](CC(C)C)NC(=O)[C@H](CC(N)=O)NC(=O)[C@H](CC(N)=O)NC(=O)CNC(=O)CNC(=O)[C@H](CS)NC(C)=O)[C@@H](C)CC)[C@@H](C)O)C(C)C)C(=O)N[C@@H](CCCCN)C(=O)N[C@@H](CCC(N)=O)C(=O)N[C@@H](CC(C)C)C(=O)N[C@@H](CCC(N)=O)C(=O)N[C@@H](C)C(=O)N[C@@H](CCCNC(=N)N)C(=O)N[C@H](C(=O)N[C@@H](CC(C)C)C(=O)N[C@@H](C)C(=O)N[C@H](C(=O)N[C@@H](CCC(=O)O)C(=O)N[C@@H](CCCNC(=N)N)C(=O)N[C@@H](Cc1ccc(O)cc1)C(=O)N[C@@H](CC(C)C)C(=O)N[C@@H](CCCCN)C(=O)N[C@@H](CC(=O)O)C(=O)N[C@@H](CCC(N)=O)C(N)=O)C(C)C)[C@@H](C)CC [DP-125] | inhibits HIV-1 cell free virus infection |
